The structures appear in SMILES notation. Values joined by “and” are separate entries in the source; they are usually repeats but may differ in a detail not shown here. Identical values can stand only once.

Amino acid sequences for entries named in this document (tags omitted). Residues count along the entry.
UniProt H7C745, 1-346: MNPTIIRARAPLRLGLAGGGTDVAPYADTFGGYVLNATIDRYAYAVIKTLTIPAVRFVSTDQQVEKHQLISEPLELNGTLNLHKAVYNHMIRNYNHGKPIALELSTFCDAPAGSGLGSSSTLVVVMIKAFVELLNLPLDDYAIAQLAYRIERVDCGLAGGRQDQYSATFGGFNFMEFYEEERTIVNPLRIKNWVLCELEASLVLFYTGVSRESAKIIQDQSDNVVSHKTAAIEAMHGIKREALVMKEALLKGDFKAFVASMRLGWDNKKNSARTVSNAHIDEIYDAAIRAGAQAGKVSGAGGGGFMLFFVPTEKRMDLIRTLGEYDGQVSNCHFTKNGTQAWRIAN

This passage reports Ki results from paper PMC4691232 (Chemistry & Biology, 2015).

The target in this experiment is WcbL (Burkholderia pseudomallei, UniProt H7C745).

Consider `Nc1ncnc2c1ncn2[C@@H]1OC(COP(=O)(O)OP(=O)(O)O)[C@@H](O)[C@H]1O` (stereo partly shown), for which the Ki (usually the equilibrium dissociation constant of an inhibitor or competing ligand from its target) was 411 µM and 490 µM.
